Pooled drug test results. Numbers come from NIAID ChemDB, via PubChem.

Shared fields: tests on isolated targets; agent: HIV-1; target: Reverse transcriptase

Two numbers with a dash give a range or band. Conditions beyond the fields shown may differ between rows. An empty or dashed field is not shown. ICn is the concentration giving n% inhibition.

smiles	method	mutations	strain	endpoint	result
Cc1ccc(-n2c(SCC(=O)Nc3ccc(S(=O)(=O)NC(C)C(=O)O)cc3Cl)nnc2C(F)F)c2c1CCCC2	nucleotide incorporation / radiometric	RT-Y188L	-	IC50	>0.1 µM
CN(C)c1nc(N)nc2c1ncn2[C@H]1C[C@H](N=[N+]=[N-])[C@@H](CO)O1	nucleotide incorporation	-	-	IC50	23.4 µM
CC(=O)C(C)Oc1ccc2c(c1OC(C)C(C)=O)C(=O)c1ccccc1C2=O	-	-	-	IC50	>100 µM
Cc1cn([C@H]2CC[C@@H](COP(=O)(O)OP(=O)(O)OP(=O)(O)O)O2)c(=O)[nH]c1=O	nucleotide incorporation / radiometric	-	WT	IC50	0.12 µM
S=C(NCCc1ccccn1)Nc1ccncn1	-	-	-	IC50	3.3–33 µM
CC(=O)COc1ccc2c(c1OCC(C)=O)C(=O)c1ccccc1C2=O	-	-	-	IC50	14 µM
CC1(C)C[C@H](O)[C@H](O)[C@]23C(=O)O[C@H](O)[C@H]2C(C=O)=CC[C@@H]13	nucleotide incorporation	-	-	IC50	>338 µM
O=P(O)(O)OP(=O)(O)O	nucleotide incorporation / radiometric	-	WT	Ki	185 µM
CNS(=O)(=O)c1ccc(NC(=O)CSc2nnc(C(F)F)n2-c2ccc(C)c3ccccc23)c(Cl)c1	nucleotide incorporation / radiometric	-	-	IC50	<0.05 µM
Cc1nnc2c3ccccc3c(N3CCc4ccccc4C3)nn12	RT activity / fluorescence	-	KER2008	IC90	0.91 µM
NS(=O)(=O)c1ccc(NC(=O)CSc2nnc(C(F)F)n2-c2ccc3c4c(cccc24)CC3)c(Cl)c1	nucleotide incorporation / radiometric	-	-	IC50	<0.05 µM
CCCCCCC(O)C(=O)O[C@H]1CC(C)(C)[C@@H]2CC=C(C=O)C3[C@@H](O)OC(=O)[C@@]32[C@H]1O	nucleotide incorporation	-	-	IC50	>238 µM
Nc1ncnc2c1ncn2[C@H]1CC[C@@H](COP(=O)(O)OP(=O)(O)OP(=O)(O)OP(=O)(O)OC[C@@H]2CC[C@H](n3cnc4c(N)ncnc43)O2)O1	nucleotide incorporation / radiometric	-	WT	IC50	6.5 µM
CCOC(=O)CCNC(=O)c1ccc(NC(=O)CSc2nnc(Br)n2-c2ccc(CC)c3ccccc23)c(Cl)c1	nucleotide incorporation / radiometric	-	-	IC50	<0.05 µM
CCCc1cc(=O)oc2c3c(c4c(c12)OC(C)(C)C=C4)O[C@H](C)C[C@@H]3O	nucleotide incorporation / radiometric	RT-Y181C	-	IC50	0.61 µM
Cc1ccc(-n2c(SCC(=O)Nc3ccc(S(=O)(=O)NCCN4CCOCC4)cc3Cl)nnc2C(F)F)c2c1CCCC2	nucleotide incorporation / radiometric	-	-	IC50	<0.05 µM
CC(=O)c1ccc(C)cc1N[C@H](C(N)=O)c1c(Cl)cccc1Cl	-	-	-	IC50	0.2 µM
Cc1cn([C@H]2CC[C@@H](COP(=O)(O)OP(=O)(O)OP(=O)(O)OP(=O)(O)OC[C@@H]3CC[C@H](n4cc(C)c(=O)[nH]c4=O)O3)O2)c(=O)[nH]c1=O	nucleotide incorporation / radiometric	-	WT	IC50	8.6 µM
Cc1cc(C)c(-n2c(SCC(=O)Nc3ccc(S(N)(=O)=O)cc3Cl)nnc2C(F)(F)F)c2c1CCCC2	nucleotide incorporation / radiometric	RT-Y181C	-	IC50	>0.1 µM
CC(=O)Oc1c(OC(C)C(C)=O)ccc2c1C(=O)c1ccccc1C2=O	-	Y181C	-	IC50	>100 µM
CCc1ccc(-n2c(Br)nnc2SCC(=O)Nc2ccc(S(N)(=O)=O)cc2Br)c2ccccc12	nucleotide incorporation / radiometric	-	-	IC50	<0.05 µM
COc1cc2c(cc1N)CN(c1nn3c(C4CC4)nnc3c3ccccc13)CC2	RT activity / fluorescence	-	KER2008	IC90	8.88 µM
COc1ccc2c(C3CC3)ccc(-n3c(Br)nnc3SCC(=O)Nc3ccc(S(=O)(=O)O)cc3Cl)c2c1	nucleotide incorporation / radiometric	RT-Y188L	-	IC50	0.05–0.1 µM
COC(=O)c1ccc2c(c1)CN(c1nn3c(C)nnc3c3ccccc13)CC2	RT activity / fluorescence	-	KER2008	IC50	3.91 µM
Nc1ncnc2c1ccn2[C@H]1C[C@H](F)[C@@H](COP(=O)(O)OP(=O)(O)OP(=O)(O)O)O1	nucleotide incorporation / radiometric	-	WT	IC50	0.11 µM
CC(=O)Oc1c(OCC(=O)c2ccccc2)ccc2c1C(=O)c1ccccc1C2=O	-	K103N	-	IC50	35 µM
CN(C)c1ccc2c(c1)CN(c1nn3c(C4CC4)nnc3c3ccccc13)CC2	RT activity / fluorescence	-	98US_MSC5016	IC50	0.48 µM
CCN1c2ncc(CCOc3cccc4c3ccc[n+]4[O-])cc2C(=O)N(C)c2ccc(Cl)nc21	nucleotide incorporation / radiometric	RT-K103N L100I	-	IC50	0.044 µM
Nc1nc2c(ncn2[C@H]2CC[C@@H](COP(=O)(O)OP(=O)(O)OP(=O)(O)O)O2)c(=O)[nH]1	-	RT-K65R	-	IC50	0.08 µM
COc1cccc2c(-n3c(Br)nnc3SCC(=O)Nc3ccc(C(=O)O)cc3Cl)cccc12	nucleotide incorporation / radiometric	RT-Y188L	-	IC50	>0.1 µM
Nc1ccn([C@@H]2CS[C@H](COP(=O)(O)OP(=O)(O)OP(=O)(O)O)O2)c(=O)n1	nucleotide incorporation	-	-	IC50	0.3 µM
NS(=O)(=O)c1ccc(NC(=O)CSc2nnc(C(F)F)n2-c2ccc(C3CCCC3)c3ccccc23)c(Cl)c1	nucleotide incorporation / radiometric	RT-Y188L	-	IC50	>0.1 µM
S=C(NCCc1ccccn1)Nc1cccnn1	-	-	-	IC50	3.3–33 µM
Cc1cc(C2CC2)cc(Cl)c1-n1c(Br)nnc1SCC(=O)Nc1ccc(S(N)(=O)=O)cc1Cl	nucleotide incorporation / radiometric	RT-Y181C	-	IC50	<0.05 µM
NC(=O)[C@@H](Nc1ccccc1[N+](=O)[O-])c1c(Cl)cccc1Cl	-	-	-	IC50	0.4 µM
CCc1ccc(-n2c(SCC(=O)Nc3ccc(C(=O)O)cc3C)nnc2C(F)F)c2ccccc12	nucleotide incorporation / radiometric	-	-	IC50	<0.05 µM
CCCCCCCCCCCCCCCC#CCCCCCCCC(=O)O	RT activity / absorbance	-	-	IC50	>1000 µM

For reference, 5 entries again:

smiles,method,mutations,strain,endpoint,result
Cc1cc(C)c(-n2c(SCC(=O)Nc3ccc(S(N)(=O)=O)cc3Cl)nnc2C(F)(F)F)c2c1CCCC2,nucleotide incorporation / radiometric,RT-Y181C,-,IC50,>0.1 µM
NS(=O)(=O)c1ccc(NC(=O)CSc2nnc(C(F)F)n2-c2ccc(C3CCCC3)c3ccccc23)c(Cl)c1,nucleotide incorporation / radiometric,RT-Y188L,-,IC50,>0.1 µM
COc1cc2c(cc1N)CN(c1nn3c(C4CC4)nnc3c3ccccc13)CC2,RT activity / fluorescence,-,KER2008,IC90,8.88 µM
CN(C)c1nc(N)nc2c1ncn2[C@H]1C[C@H](N=[N+]=[N-])[C@@H](CO)O1,nucleotide incorporation,-,-,IC50,23.4 µM
CC1(C)C[C@H](O)[C@H](O)[C@]23C(=O)O[C@H](O)[C@H]2C(C=O)=CC[C@@H]13,nucleotide incorporation,-,-,IC50,>338 µM